A mixed list of measured activities; the numbers were collected in NIAID ChemDB.

Common to all: tests in culture; species: Aspergillus flavus; endpoint: zone

Neighbouring rows are from separate reports.

compound | strain or isolate | dose | method | result
O=C(CNC(=O)c1ccncc1)NN1C(=O)/C(=C/c2ccccc2Cl)SC1c1ccccc1Cl | - | 100 µg/mL | agar diffusion | 19 mm
Oc1cc2ccccc2cc1/C=N/NC(=S)N/N=C/c1cc2ccccc2cc1O | - | 2 mg/mL | agar diffusion / agar | 0 mm
CN(C)C=O | - | 100 µg/mL | - | 6 mm
O=C(NN=CC1C(c2ccccc2)=Nc2ccccc21)N1c2ccccc2C=Cc2ccccc21 | MTCC-1973 | 500 µg/mL | agar diffusion | 9 mm
CSc1ccc(C2=NN(c3ccccc3)C(c3cn(-c4ccccc4)nc3-c3ccc(Br)cc3)C2)cc1 | - | 1000 µg/mL | - | 4 mm
Cc1ccc2nc3n4c(c5ccccc5c-3c2c1)NN=C(c1ccccc1)C4 | MTCC-1973 | 12.5 µg/mL | agar diffusion / visual reading | 11 mm
Clc1ccc(C2=NN(c3ccccc3)C(c3cn(-c4ccccc4)nc3-c3ccccc3)C2)c(Cl)c1 | - | 1000 µg/mL | - | 0 mm
O=C(CNC(=O)c1ccncc1)NN1C(=O)CSC1c1ccc([N+](=O)[O-])cc1 | - | 50 µg/mL | agar diffusion | 23 mm
O=c1c2ccccc2c(-c2ccccc2)nn1-c1nc2[nH]c3ccc(Cl)cc3c2c2ccccc12 | MTCC-1973 | 50 µg/mL | agar diffusion / visual reading | 6 mm
O=c1[nH]c(-c2cc3ccccc3oc2=O)nc2c1C(c1ccccc1Cl)c1ccc3ccccc3c1O2 | - | 150 µg/mL | agar diffusion / agar | 16 mm
COc1ccc2nc3n4c(c5ccccc5c-3c2c1)NN=C(c1ccc(C)cc1)C4 | MTCC-1973 | 3.125 µg/mL | agar diffusion / visual reading | 13 mm
O=C(NN=CC1C(c2ccccc2)=Nc2ccc(Cl)cc21)N1c2ccccc2C=Cc2ccccc21 | MTCC-1973 | 1000 µg/mL | agar diffusion | 14 mm
Cc1ccc2nc3n4c(c5ccccc5c-3c2c1)NN=C(c1ccc(Cl)cc1)C4 | MTCC-1973 | 25 µg/mL | agar diffusion / visual reading | 7 mm
COc1ccc(-c2nn(-c3ccccc3)cc2C2CC(c3ccc(-c4ccccc4)cc3)=NN2c2ccccc2)cc1 | - | 1000 µg/mL | - | 0 mm
CN(C)c1ccc(C2c3ccc4ccccc4c3Oc3nc(-c4cc5ccccc5oc4=O)[nH]c(=O)c32)cc1 | - | 150 µg/mL | agar diffusion / agar | 16 mm
O=C(CNC(=O)c1ccncc1)NN1C(=O)CSC1c1cccc(Br)c1 | - | 50 µg/mL | agar diffusion | 15 mm
Cc1ccc(C2=NNc3c4ccccc4c4c5cc(C)ccc5nc-4n3C2)cc1 | MTCC-1973 | 3.125 µg/mL | agar diffusion / visual reading | 8 mm
O=c1[nH]c(-c2cc3ccccc3oc2=O)nc2c1C(c1cccc([N+](=O)[O-])c1)c1ccc3ccccc3c1O2 | - | 100 µg/mL | agar diffusion / agar | 9 mm
CC(C)(C)c1nnc2c3ccccc3c3c4cc(Cl)ccc4[nH]c3n12 | MTCC-1973 | 12.5 µg/mL | agar diffusion / visual reading | 5 mm
COc1ccccc1C1SCC(=O)N1NC(=O)CNC(=O)c1ccncc1 | - | 50 µg/mL | agar diffusion | 12 mm
O=c1[nH]n(-c2nc3[nH]c4ccc(Cl)cc4c3c3ccccc23)c(=O)c2ccccc12 | MTCC-1973 | 12.5 µg/mL | agar diffusion / visual reading | 3 mm
O=C(CNC(=O)c1ccncc1)NN1C(=O)/C(=C/c2ccc(Cl)cc2)SC1c1ccc(Cl)cc1 | - | 50 µg/mL | agar diffusion | 17 mm
COc1ccc2nc3n4c(c5ccccc5c-3c2c1)NN=C(c1ccc(Cl)cc1)C4 | MTCC-1973 | 3.125 µg/mL | agar diffusion / visual reading | 8 mm
Cc1cc(=O)oc2c(C=Nc3cccc4cccc(N=Cc5c(O)ccc6c(C)cc(=O)oc56)c34)c(O)ccc12 | MTCC 1883 | 500 µg/mL | - | 25 mm
COc1ccc(C2c3ccc4ccccc4c3Oc3nc(-c4cc5ccccc5oc4=O)[nH]c(=O)c32)cc1OC | - | 100 µg/mL | agar diffusion / agar | 15 mm
Clc1ccc(C2=NN(c3ccccc3)C(c3cn(-c4ccccc4)nc3-c3ccc(Br)cc3)C2)c(Cl)c1 | - | 1000 µg/mL | - | 4 mm
O=c1[nH]c(-c2cc3ccccc3oc2=O)nc2c1C(c1ccc(Cl)cc1)c1ccc3ccccc3c1O2 | - | 150 µg/mL | agar diffusion / agar | 15 mm
O=C(CNC(=O)c1ccncc1)NN1C(=O)CSC1c1ccccc1Cl | - | 100 µg/mL | agar diffusion | 22 mm

2 of the rows above, restated:

compound	strain or isolate	dose	method	result
Cc1ccc2nc3n4c(c5ccccc5c-3c2c1)NN=C(c1ccc(Cl)cc1)C4	MTCC-1973	25 µg/mL	agar diffusion / visual reading	7 mm
CN(C)c1ccc(C2c3ccc4ccccc4c3Oc3nc(-c4cc5ccccc5oc4=O)[nH]c(=O)c32)cc1	-	150 µg/mL	agar diffusion / agar	16 mm

Zone: diameter of growth inhibition. Blank or dashed fields: not listed here.